Compound potency records, mixed from different reports. Data source: NIAID ChemDB in PubChem.

Shared fields: tests in culture; species: Mycobacterium tuberculosis

MIC50, MIC90 and the like: level of inhibition, or share of isolates inhibited.

structure,conditions,endpoint,method,cells,strain or isolate,dose,value
COc1ccc(C/C=C/C=C/C(=O)NCC(C)C)cc1,,MIC90,resazurin / absorbance,,H37Rv,,8 µg/mL
O=C(N[C@@H]1COc2nc([N+](=O)[O-])cn2C1)OCc1ccc(OC(F)(F)F)cc1,,MIC,,,H37Rv,,0.06 µg/mL
CC1=CC(=O)C(C(C)C)=CC1=O,,MBC,broth dilution,,H37Ra ATCC 25177,,16 µg/mL
Cc1cccc(C(N)=Nc2nc(-c3ccccn3)cc3ccccc23)c1,,MIC,,,,,0.5 µg/mL
Cc1cc(C)c2c(=O)n(CC(=O)N3CCN(c4ccccc4)CC3)sc2n1,,inhibition,BACTEC,,H37Rv,12.5 µg/mL,100%
CN(C)[C@@H]1CCN(c2cc(Nc3cc(C(=O)NC4CC4)ccn3)nc(-c3ccccc3)n2)C1,,MIC99,,,H37Rv,,>20 µM
CO[C@H]1/C=C/O[C@@]2(C)Oc3c(C)c(O)c4c(O)c(c(/C=N/N5CCN(C)CC5)c(O)c4c3C2=O)NC(=O)/C(C)=C\C=C\[C@H](C)[C@H](O)[C@@H](C)[C@@H](O)[C@@H](C)[C@H](OC(C)=O)[C@@H]1C,,MIC,,,Harlingen (Ser531Trp),,>32 µg/mL
CCCCCCCCO[C@H]1O[C@H](CO[C@H]2O[C@H](CN=[N+]=[N-])[C@@H](O)[C@@H]2O)[C@@H](O)[C@@H]1O,,MIC,,,H37Ra,,>12.8 µg/mL
O=C1NC(c2ccccc2)C(=O)NC1c1ccccc1,,inhibition,BACTEC,,H37Rv,12.5 µg/mL,15%
O=C(Nc1nc(-c2ccccc2)cs1)c1cc(-c2ccc([N+](=O)[O-])s2)nc2ccccc12,,MIC,fluorescence,,H37Rv,,6.25 µg/mL
Cc1cccc(C)c1OCC(=O)N[C@@H](Cc1ccccc1)[C@@H](O)C[C@H](Cc1ccccc1)NC(=O)[C@H](C(C)C)N1CCCNC1=O,,MIC,resazurin,,ATTC 27294,,>159 µM
C[C@@H]1CN(c2c(F)c(N)c3c(=O)c(C(=O)O)cn(C4CC4)c3c2F)C[C@H](C)N1,,MIC90,,,22 strains (rifampicin-susceptible),,0.2 µg/mL
NNC(=O)c1ccc(N)cc1O,,MIC,BACTEC,,H37Rv,,≥12.5 µg/mL
CO[C@H]1/C=C/O[C@@]2(C)Oc3c(C)c(O)c4c(O)c(c(/C=N/N5CCN(C)CC5)c(O)c4c3C2=O)NC(=O)/C(C)=C\C=C\[C@H](C)[C@H](O)[C@@H](C)[C@@H](O)[C@@H](C)[C@H](OC(C)=O)[C@@H]1C,,MIC,,,,,0.3 µg/mL
CC(=O)n1cc(/C=N\NC(=O)c2ccncc2)c2ccccc21,,MIC,,,H37Rv,,0.2 µg/mL
Cc1cc(O)c2c(c1)C(=O)C(c1c(C)cc3c(c1O)C(=O)C=CC3=O)=CC2=O,,MBC,broth dilution,,H37Ra ATCC 25177,,32 µg/mL
COC(=O)C(=O)c1c(C(=O)OC)nc2nnc(N)n2c1-c1ccc(F)cc1,,inhibition,resazurin,,H37Rv,6.25 µg/mL,-2%
CO[C@H]1/C=C/O[C@@]2(C)Oc3c(C)c(O)c4c(O)c(c(N5CCN(Cc6c(C)cc(C)cc6C)CC5)c(O)c4c3C2=O)NC(=O)/C(C)=C\C=C\[C@H](C)[C@H](O)[C@@H](C)[C@@H](O)[C@@H](C)[C@H](OC(C)=O)[C@@H]1C,,MIC,,,,,0.04 µg/mL
CC(C)=CCc1c(C)cc2cc3c(c(O)c2c1O)C(O)=CC(=O)C3(CC=C(C)C)C/C=C(\C)CO,,MIC bound,BACTEC,,H37Rv,,>12.5 µg/mL
CCOC(=O)C/C(C)=N/NC(=O)CCn1c(-c2ccc(Cl)cc2)cc(C(=O)OCC)c1C,,inhibition,,,H37Rv,6.25 µg/mL,94%
COC1=CC(=O)c2c(O)c3c(c(O)c2C1=O)CC(C)(O)OC3,,inhibition,BACTEC,,H37Rv,12.8 µg/mL,71%
CC(C)(CNC(=O)C1CCC1)CNc1nc(Nc2cccc(CN3CCCC3)c2)ncc1Br,,MIC99,,,H37Rv,,5 µM
CCCCCCCCO[C@H]1O[C@H](CO[C@H]2O[C@H](CN(CC3CCCCC3)CC3CCCCC3)[C@@H](O)[C@@H]2O)[C@@H](O[Si](C)(C)C(C)(C)C)[C@@H]1O[Si](C)(C)C(C)(C)C,,MIC,,,H37Ra,,>12.8 µg/mL
C[C@@H]1CN(c2c(F)c(N)c3c(=O)c(C(=O)O)cn(C4CC4)c3c2F)C[C@H](C)N1,,MIC90,,,20 strains,,0.5 µg/mL
C=C(CC[C@@H](C)[C@H]1CC[C@H]2[C@@H]3C(C=O)=C4C[C@@H](O)CC[C@]4(C)[C@H]3CC[C@]12C)C(C)C,,MIC,,,H37Rv,,7.8 µg/mL
CCCCc1ccc(N2C(=S)c3cc(Cl)ccc3NC2(C)C)cc1,,MIC,,,My 331/88,,>62.5 µg/mL
COc1cc(-c2nnc(Sc3nc(Nc4ccc(C#N)cc4)nc(Oc4cc(=O)n(C)c5ccccc45)n3)o2)cc(OC)c1OC,,EC99,agar,,,,12.5 µg/mL
N[C@@H](Cc1ccccc1)[C@H](O)C[C@H](Cc1ccccc1)N=Cc1ccc([N+](=O)[O-])o1,,MIC,resazurin,,ATTC 27294,,>245.5 µM
Cc1cc(C)c2c(OCCCCN3CCN(c4ccccn4)CC3)nsc2n1,,EC50,BACTEC,,H37Rv,,>12.5 µg/mL
CCN(CCO)C(=O)C1(c2ccccc2)CCCCC1,,MIC bound,BACTEC,,H37Rv,,>12.5 µg/mL
N[C@@H](Cc1ccccc1)[C@H](O)C[C@H](Cc1ccccc1)N=Cc1ncc[nH]1,,MIC,resazurin,,ATTC 27294,,>276.1 µM
CCOC(=O)c1c(C)[nH]c(/C=N\NC(=O)c2ccncc2)c1C,,inhibition,,,H37Rv,6.25 µg/mL,98%
CN1CCN(CCOc2cc(Nc3cc(C4CC4)[nH]n3)nc(-c3ccccc3)n2)CC1,,MIC99,,,H37Rv,,10 µM
Cn1c(=O)cc(Oc2nc(Nc3ccc(C#N)cc3)nc(Oc3cc(=O)oc4ccccc34)n2)c2ccccc21,,inhibition,agar,,,100 µg/mL,96%
CN(C)[C@@H]1CCN(c2cc(Nc3cc(C(F)(F)F)c(Br)cn3)nc(-c3ccccc3)n2)C1,,MIC90,resazurin,,H37Rv,,16 µM
CCOC(=O)c1cc(-c2ccc(Cl)cc2)n(CCC(=O)N/N=C/c2ccc(OC)cc2)c1C,,MIC,,,H37Rv,,>6.25 µg/mL
COc1ccc2c(c1)C1C3OC(c4ccccc43)C1S(=O)N2,,MIC bound,BACTEC,,H37Rv,,>12.5 µg/mL
Nc1nc(-n2cc(C(=O)O)c(=O)c3cc(F)c(N4CC(O)C4)c(Cl)c32)c(F)cc1F,,MIC90,,,22 strains (rifampicin-susceptible),,0.78 µg/mL
Cn1c(=O)cc(Oc2nc(Nc3ccc(C#N)cc3)nc(Nc3ccccn3)n2)c2ccccc21,,inhibition,agar,,,500 µg/mL,94%
O=c1[nH]c2ccc(Cl)cc2c(=O)o1,,MIC bound,resazurin,,H37Rv,,>6.25 µg/mL
Cc1cc[n+](CC(=O)c2ccc(F)cc2)cc1.[Br-],,EC50,resazurin,,H37Rv,,8 µg/mL
C[N+](C)=c1ccc2nc3c(ccc4ccccc43)oc-2c1.[Cl-],,MIC,,VERO,H37Rv,,6.25 µg/mL
[N-]=[N+]=[N-].[Na+],,MIC,,,H37Rv,,40.63 µg/mL
NCCCCNc1ccc2c(=O)[nH][nH]c(=O)c2c1,,inhibition,BACTEC,,,0.5 µM,0%
Cc1cc(C)c2c(OCCCN3CCN(c4cccc(Cl)c4)CC3)nsc2n1,,inhibition,BACTEC,,H37Rv,12.5 µg/mL,0%
CNC(=O)OCc1c(COC(=O)NC)c(C)n(-c2ccc(Cl)cc2)c1C,,MIC bound,BACTEC,,H37Rv,,>12.5 µg/mL
CC1(C)C=CC(NC(=O)c2cc3c(Cl)cncc3[nH]2)CC1,,MIC90,resazurin,,H37Rv,,0.13 µg/mL
COc1ccc2nc(Nc3nc(Nc4ccc(C#N)cc4)nc(Oc4cc(=O)n(C)c5ccccc45)n3)sc2c1,,inhibition,agar,,,62.5 µg/mL,97%
CCCCCCCCO[C@H]1O[C@H](CO[C@H]2O[C@H](CNS(=O)(=O)CC)[C@@H](O)[C@@H]2O)[C@@H](O)[C@@H]1O,,MIC,,,H37Ra,,>12.8 µg/mL
OC1(c2cccnc2)C=CCC1,,MIC bound,BACTEC,,H37Rv,,>12.5 µg/mL
COc1ccccc1N1CCN(Cn2sc3nc(C)cc(C)c3c2=O)CC1,,EC50,BACTEC,,H37Rv,,<12.5 µg/mL
CC[CH2][Sn]([F])([F])[CH2]CC.Cc1cnc2c(ccc3c(C)c(C)cnc32)c1C,,MIC,BACTEC,,H37Rv,,6.25 µg/mL
O=C(O)c1cc(-c2ccc(-c3cccs3)s2)nc2ccccc12,,MIC,fluorescence,,H37Rv,,>6.25 µg/mL
CN(C)[C@@H]1CCN(c2cc(Nc3ccc(C(F)(F)F)cn3)nc(-c3ccccc3)n2)C1,,MIC99,,,H37Rv,,>20 µM
Cn1c(=O)cc(Oc2nc(Nc3ccc(C#N)cc3)nc(Nc3nc4ccc([N+](=O)[O-])cc4s3)n2)c2ccccc21,,MIC,agar,,,,100 µg/mL
O=C1NN=C(c2ccc(Br)cc2)CS1,,inhibition,resazurin,,H37Rv,6.25 µg/mL,60%
CO[C@H]1/C=C/O[C@@]2(C)Oc3c(C)c(O)c4c(O)c(c5c(c4c3C2=O)NC2(CCN(CC(C)C)CC2)N=5)=NC(=O)/C(C)=C\C=C\[C@H](C)[C@H](O)[C@@H](C)[C@@H](O)[C@@H](C)[C@H](OC(C)=O)[C@@H]1C,,MIC,,,,,0.04 µg/mL
O=C(O)c1cc(N=C2C=CC(=C(c3ccccc3)c3ccc(Nc4ccc(Cl)c(C(=O)O)c4)cc3)C=C2)ccc1Cl,,inhibition,BACTEC,,H37Rv,12.5 µg/mL,0%
Cn1c(=O)cc(Oc2nc(Nc3ccc(C#N)cc3)nc(Oc3cc(=O)n(C)c4ccccc34)n2)c2ccccc21,,MIC,agar,,,,50 µg/mL
NNC(=O)c1cc(-c2cccs2)nc2ccccc12,,MIC,fluorescence,,H37Rv,,>6.25 µg/mL
CC(C)CCOc1ccc(NC(=S)Nc2ccc(OCCC(C)C)cc2)cc1,,MIC,,,H37Rv,,2 µg/mL
Cn1c(=O)cc(Oc2nc(Nc3ccc(C#N)cc3)nc(Nc3nc4ccc(Cl)cc4s3)n2)c2ccccc21,,MIC,agar,,,,100 µg/mL
CC(C)(C)OC(=O)N[C@@H](Cc1ccccc1)[C@H](O)C[C@H](Cc1ccccc1)N=Cc1ccc[nH]1,,MIC,resazurin,,ATTC 27294,,108.4 µM
Cc1cc2c(c3c1c(=O)c1ccccc1n3C)C=CC(C)(C)O2,,MIC,,,TAC-R,,12.5 µg/mL
CCCCCCCCO[C@H]1O[C@H](CO[C@H]2O[C@H](CNC(=O)c3ccccc3)[C@@H](O)[C@@H]2O)[C@@H](O)[C@@H]1O,,MIC,,,H37Ra,,>12.8 µg/mL
N=C1C=C(N)C(=O)c2ccccc21,,MIC,BACTEC,,H37Rv,,12.5 µg/mL
CC1(C)Nc2ccccc2C(=S)N1c1ccc(Cl)c(Cl)c1,,MIC,,,My 331/88,,>62.5 µg/mL
CC(C)N(O)C(=O)C(=O)O,,MIC,,,ATCC35801,,>18 µg/mL
NC(=O)c1cnccn1,7 d,EC50,,,TMC311,,>800 µg/mL
CN(C)[C@@H]1CCN(c2cc(Nc3cc(C4CC4)[nH]n3)nc(-c3ccccc3)n2)C1,,MIC90,resazurin,,H37Rv,,32 µM
Cc1nc2ccc(Cl)cc2c(=S)n1-c1ccc(Br)cc1,,MIC,,,My 331/88,,31 µg/mL
Cc1c(Cl)c2ccc(N(C)C)cc2[nH]c1=O,,MIC bound,BACTEC,,H37Rv,,>12.5 µg/mL
Cc1cc(C)c2c(OCCCCN3CCN(c4ncccn4)CC3)nsc2n1,,inhibition,BACTEC,,H37Rv,12.5 µg/mL,0%
COc1ccc(/C(=N\NC(=O)C(N)=O)C(c2ccc(OC)cc2)C2(O)C(=O)Nc3c(Cl)cccc32)cc1,,MIC,resazurin,,H37Rv,,12.5 µg/mL
Cc1ccc(NC(=O)c2cc(/C=C/c3ccc(-c4cccs4)s3)nc3ccc(C)cc23)cc1,,MIC,fluorescence,,H37Rv,,>6.25 µg/mL
COc1cc2c3cc1Oc1c(O)c(OC)cc4c1C(Cc1ccc(cc1)Oc1cc(ccc1O)CC3N(C)CC2)N(C)CC4,,MIC bound,BACTEC,,H37Rv,,>12.8 µg/mL
Cc1cc(C)c2c(n1)S(=O)(=O)N(C/C=C/CN1CCN(c3ncccn3)CC1)C2=O,,inhibition,BACTEC,,H37Rv,12.5 µg/mL,0%

For reference, 11 entries again:

structure	conditions	endpoint	method	cells	strain or isolate	dose	value
CCCCCCCCO[C@H]1O[C@H](CO[C@H]2O[C@H](CN(CC3CCCCC3)CC3CCCCC3)[C@@H](O)[C@@H]2O)[C@@H](O[Si](C)(C)C(C)(C)C)[C@@H]1O[Si](C)(C)C(C)(C)C		MIC			H37Ra		>12.8 µg/mL
NNC(=O)c1cc(-c2cccs2)nc2ccccc12		MIC	fluorescence		H37Rv		>6.25 µg/mL
CN(C)[C@@H]1CCN(c2cc(Nc3cc(C(F)(F)F)c(Br)cn3)nc(-c3ccccc3)n2)C1		MIC90	resazurin		H37Rv		16 µM
Nc1nc(-n2cc(C(=O)O)c(=O)c3cc(F)c(N4CC(O)C4)c(Cl)c32)c(F)cc1F		MIC90			22 strains (rifampicin-susceptible)		0.78 µg/mL
COc1ccc2c(c1)C1C3OC(c4ccccc43)C1S(=O)N2		MIC bound	BACTEC		H37Rv		>12.5 µg/mL
CC(C)N(O)C(=O)C(=O)O		MIC			ATCC35801		>18 µg/mL
C[N+](C)=c1ccc2nc3c(ccc4ccccc43)oc-2c1.[Cl-]		MIC		VERO	H37Rv		6.25 µg/mL
CC[CH2][Sn]([F])([F])[CH2]CC.Cc1cnc2c(ccc3c(C)c(C)cnc32)c1C		MIC	BACTEC		H37Rv		6.25 µg/mL
CC(=O)n1cc(/C=N\NC(=O)c2ccncc2)c2ccccc21		MIC			H37Rv		0.2 µg/mL
Cc1cc(C)c2c(n1)S(=O)(=O)N(C/C=C/CN1CCN(c3ncccn3)CC1)C2=O		inhibition	BACTEC		H37Rv	12.5 µg/mL	0%
O=C(N[C@@H]1COc2nc([N+](=O)[O-])cn2C1)OCc1ccc(OC(F)(F)F)cc1		MIC			H37Rv		0.06 µg/mL

MIC bound: limit read from a one-dose screen. Percent inhibition refers to the dose given; in toxicity tests it is the harm to the cells. An empty or dashed field is not shown. Conditions beyond the fields shown may differ between rows. ECn: concentration that inhibits the pathogen or its effect by n%.